Measured values from several laboratories, pooled; numbers as filed in NIAID ChemDB.

Shared fields: tests in culture; species: Aspergillus flavus; endpoint: zone

Zones are inhibition diameters on agar. Rows are shuffled and stem from different studies. An empty or dashed field is not shown.

structure	strain	tested at	read by	result
C[C@@H]1[C@H](O)[C@@H](C)/C=C/C=C/CC/C=C/C=C/C=C/C=C/C(O[C@H]2O[C@H](C)[C@@H](O)[C@H](N)[C@@H]2O)CC2O[C@](O)(CC(O)C(O)CCC(O)CC(O)CC(O)CC(=O)O[C@H]1C)CC(O)C2C(=O)O	MTCC 277	10 µg/disc	agar diffusion	22 mm
CCCCc1nc(Cl)c(-c2cc(-c3ccc(Br)s3)nc3c2C(=O)c2ccccc2-3)n1Cc1ccccc1	MTCC 8188	10 µg/disc	agar diffusion	7 mm
Oc1cccc2cccnc12		25 µg/mL	agar	19 mm
[Al]#[P]		1 mg/mL	agar diffusion	16.01 mm
Cc1ccc2nc(Cl)c(CNc3ccccc3)cc2c1	MTCC 277	200 µg/mL	agar diffusion	10.9 mm
N/N=C/c1c(O)[nH]c(=S)[nH]c1=O		10000 µg/mL	agar diffusion / agar	36 mm
C[C@@H]1[C@H](O)[C@@H](C)/C=C/C=C/CC/C=C/C=C/C=C/C=C/C(O[C@H]2O[C@H](C)[C@@H](O)[C@H](N)[C@@H]2O)CC2O[C@](O)(CC(O)C(O)CCC(O)CC(O)CC(O)CC(=O)O[C@H]1C)CC(O)C2C(=O)O	MTCC 8188	10 µg/disc	agar diffusion	9 mm
Cc1ccc2nc(Cl)c(CNc3ccc(Cl)cc3)cc2c1	MTCC 277	200 µg/mL	agar diffusion	10.8 mm
Oc1cccc2cccnc12		25 µg/mL	agar diffusion / agar	19 mm
CCCCc1nc(Cl)c(-c2cc(-c3ccc4ccccc4c3)nc3c2C(=O)c2ccccc2-3)n1Cc1ccccc1	MTCC 8188	10 µg/disc	agar diffusion	6 mm
Cc1ccc2nc(Cl)c(CNc3ccccc3Cl)cc2c1	MTCC 277	200 µg/mL	agar diffusion	7.93 mm
COC1=CC(=O)C[C@@H](C)[C@]12Oc1c(Cl)c(OC)cc(OC)c1C2=O		250 µg/disc	agar diffusion	34 mm
C[C@H]1[C@H](O)[C@@H](C)/C=C/C=C/C=C/C=C/C=C/C=C/C=C/[C@H](O[C@@H]2O[C@H](C)[C@@H](O)[C@H](N)[C@@H]2O)C[C@@H]2O[C@](O)(C[C@@H](O)C[C@@H](O)CC[C@H](O)[C@@H](O)C[C@@H](O)CC(=O)O[C@H]1C)C[C@H](O)[C@H]2C(=O)O		10 µg/mL	agar diffusion / agar	29 mm
CCOC(=O)C1=C(N)Oc2[nH]c(=S)[nH]c(=O)c2C1c1ccc(Cl)cc1		10000 µg/mL	agar diffusion / agar	0 mm
CCCCc1nc(Cl)c(-c2cc(-c3ccco3)nc3c2C(=O)c2ccccc2-3)n1Cc1ccccc1	MTCC 8188	10 µg/disc	agar diffusion	10 mm
Cc1ccc2nc(Cl)c(CNc3ccc(Br)cc3)cc2c1	MTCC 277	200 µg/mL	agar diffusion	11.06 mm
COc1cc(C2C(C#N)=C(NS(=O)(=O)c3ccccc3)Oc3[nH]c(=S)[nH]c(=O)c32)cc(OC)c1OC		10000 µg/mL	agar diffusion / agar	0 mm

Repeating the final 2 entries:

structure | strain | tested at | read by | result
Cc1ccc2nc(Cl)c(CNc3ccc(Br)cc3)cc2c1 | MTCC 277 | 200 µg/mL | agar diffusion | 11.06 mm
COc1cc(C2C(C#N)=C(NS(=O)(=O)c3ccccc3)Oc3[nH]c(=S)[nH]c(=O)c32)cc(OC)c1OC |  | 10000 µg/mL | agar diffusion / agar | 0 mm